PubChem BioAssay AID1259414 | Drosophila RNAi Screening Center, 2018
The screen tested about 24,000 reagents; shown is an unselected part of those that have a named target and a result. Of all reagents, about 1,210 (5%) are marked active. 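Inactive calls also include excluded dsRNAs with several or no targets, genes unexpressed in JW18, and well A1, regardless of score.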 The numbers tell different reagents against one gene apart. Names joined by + are all predicted targets of the reagent.

Purpose: 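Fly genes that alter Wolbachia amount inside host cells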 (primary screen)
Cells: Drosophila JW18 cells infected with Wolbachia
Knock-down reagent: long dsRNA against Drosophila genes, 0.25 µg dsRNA per well of a 384-well plate
Duration: 5 days
Treatment: cells persistently infected with Wolbachia before knock-down; no added drug
Read-out: 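Imaged fluorescence in situ signal for Wolbachia 23S rRNA per DAPI-counted host cell, given as a robust z-score within each plate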
Scale: Wolbachia per cell robust z: higher = more Wolbachia per host cell than the plate typical
Rule for the call: 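Active if absolute robust z reaches 1.5 in two or more of three replicates, leaving out multi- or no-target dsRNAs, genes unexpressed in JW18 and A1 wells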

target	reagent no.	Wolbachia per cell robust z, rep 1	Wolbachia per cell robust z, rep 2	Wolbachia per cell robust z, rep 3	Outcome
CG15870	1	-0.333	0.417	0.531	inactive
CG15870	2	0.887	-0.0758	0.725	inactive
CG3734	1	0.599	-3.46	0.606	inactive
CG3734	2	-0.597	-0.131	-0.512	inactive
CG30048	1	1.02	0.713	1.03	inactive
Arl2 (ADP ribosylation factor-like 2)	1	0.501	0.792	1.2	inactive
CG3437	1	-0.161	-0.406	0.926	inactive
CG3437	2	0.5	1.17	1.37	inactive
CG3356	1	0.319	0.365	-0.00794	inactive
CG3356	2	0.172	1.03	-0.836	inactive
Polr2K (RNA polymerase II, I and III subunit K)	1	-0.461	0.789	0.918	inactive
CG33125	1	-0.536	-1.1	-1.68	inactive
CG33125	2	-0.949	-0.761	0.475	inactive
mtm (myotubularin)	1	1.62	-1.52	-0.629	inactive
CG34386	1	-0.311	-0.271	0.846	inactive
CG34386	2	0.133	0.618	-1.09	inactive
CG34386	3	-0.191	-6.85	-0.65	inactive
Top2 (Topoisomerase 2)	1	1.18	0.31	0.0289	inactive
Top2 (Topoisomerase 2)	2	-1.36	0.409	-0.508	inactive
Snap24 (Synaptosomal-associated protein 24kDa)	1	-0.709	-0.79	0.186	inactive
Ctps + CG45071	1	0.565	1.25	-0.137	inactive
CG3625	1	0.83	0.307	0.695	inactive
RabX2	1	-2.46	-1.31	-0.01	inactive
sro (shroud)	1	0.551	0.959	1.18	inactive
sro (shroud)	2	-0.311	0.302	-2.65	inactive
Rint1 + CR41379	1	-0.415	-0.361	0.649	inactive
Ugt49B1 (UDP-glycosyltransferase family 49 member B1)	1	-5.61	0.534	-5.03	inactive
Ugt49B1 (UDP-glycosyltransferase family 49 member B1)	2	0.638	0.0487	0.103	inactive
CG34130	1	-3.61	-0.62	0.665	inactive
aqz (aaquetzalli)	1	-3.47	-0.00723	0.54	inactive
aqz (aaquetzalli)	2	-1.02	-0.554	-0.613	inactive
CG9483	1	1.35	-0.0338	-0.483	inactive
CG9483	2	-3.55	-0.721	0.526	inactive
vis (vismay)	1	-3.1	-0.201	-0.183	inactive
CG31268	1	-1.06	-0.0107	0.146	inactive
car (carnation)	1	-0.366	-0.408	-1.37	inactive
car (carnation)	2	1.39	0.381	0.859	inactive
gl (glass)	1	0.312	0.687	1.21	inactive
rept (reptin)	1	-0.0442	1.18	-0.613	inactive
rept (reptin)	2	-2.3	1.1	0.836	inactive
Csl4	1	-0.298	-0.233	0.587	inactive
Csl4	2	-3.25	-0.649	0.0865	inactive
Alp7 (Alkaline phosphatase 7)	1	1.58	-0.859	-1.19	inactive
Alp7 (Alkaline phosphatase 7)	2	0.513	-0.266	0.934	inactive
BORCS6 (BLOC-1 related complex subunit 6)	1	1.1	0.285	0.794	inactive
BORCS6 (BLOC-1 related complex subunit 6)	2	-0.579	-0.725	-0.0251	inactive
Irp-1A (Iron regulatory protein 1A)	1	-8.28	-0.192	0.145	inactive
Sap47 (Synapse-associated protein 47kD)	1	0.49	0.52	0.0841	inactive
Sap47 (Synapse-associated protein 47kD)	2	1.7	0.508	0.905	inactive
CG9536	1	-1.1	0.102	0.28	inactive
CG9536	2	-0.104	0.128	0.278	inactive
stil (stand still)	1	-1.02	-1.04	-0.0492	inactive
Eglp3 (Entomoglyceroporin 3)	1	-0.899	-2.05	-1.22	inactive
Eglp3 (Entomoglyceroporin 3)	2	-0.303	-0.181	-4.93	inactive
5-HT1A (5-hydroxytryptamine (serotonin) receptor 1A)	1	0.567	-2.5	-0.197	inactive
5-HT1A (5-hydroxytryptamine (serotonin) receptor 1A)	2	1.37	0.266	0.672	inactive
CG43084	1	0.238	-0.296	-0.658	inactive
CG1999	1	0.676	-0.684	-0.509	inactive
CG1999	2	-0.449	0.954	0.1	inactive
CG7432	1	-5.48	-5.19	0.0751	inactive
ctrip (circadian trip)	1	1.25	1.53	0.117	inactive
ctrip (circadian trip)	2	0.966	0.786	0.441	inactive
ctrip (circadian trip)	3	-0.767	1.28	-0.71	inactive
ctrip (circadian trip)	4	0.272	0.803	-0.813	inactive
ctrip (circadian trip)	5	-0.769	-1.8	-1.14	inactive
Dnai2 (dynein, axonemal, intermediate chain 2)	1	0.575	0.843	-0.114	inactive
CG11977	1	-0.0141	0.33	0.324	inactive
CG33120	1	-0.0173	-0.534	-3.9	inactive

Targets above whose gene name begins with R or r (4):
target	reagent no.	Wolbachia per cell robust z, rep 1	Wolbachia per cell robust z, rep 2	Wolbachia per cell robust z, rep 3	Outcome
RabX2	1	-2.46	-1.31	-0.01	inactive
Rint1 + CR41379	1	-0.415	-0.361	0.649	inactive
rept (reptin)	1	-0.0442	1.18	-0.613	inactive
rept (reptin)	2	-2.3	1.1	0.836	inactive
